Measured values reported in PMC7843721.
Changes are numbered by the printed parent chain. For at least one entry, the source does not settle the construct or the ends of the probe. Where a protein sequence is shown, tags need not be part of it.

What was measured:
Assay in all cases: EMSA
MtrA K110R = molecular target: T1, MtrA K110R (UniProt P9WGM7); details: no AcP, similar to WT; recombinant protein; protein details: 6xHis; label: 32P 5'-end; probe letters rebuilt from the primers and the genome
T1 sequence (looked up, limits assumed): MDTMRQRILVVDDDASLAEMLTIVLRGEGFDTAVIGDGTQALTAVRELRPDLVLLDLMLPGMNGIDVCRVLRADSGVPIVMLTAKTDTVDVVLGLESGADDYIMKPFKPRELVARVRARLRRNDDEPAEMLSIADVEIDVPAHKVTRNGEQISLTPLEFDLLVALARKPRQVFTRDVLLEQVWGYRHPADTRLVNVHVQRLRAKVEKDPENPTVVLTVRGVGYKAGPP

MtrA K207R = molecular target: T2, MtrA K207R (UniProt P9WGM7); details: no AcP, similar to WT; recombinant protein; protein details: 6xHis; label: 32P 5'-end; probe letters rebuilt from the primers and the genome
T2 sequence (looked up, limits assumed): T1 sequence (looked up, limits assumed) with R110K, K207R

MtrA K110R K207R = molecular target: T3, MtrA K110R K207R (UniProt P9WGM7); details: recombinant protein, protein details: 6xHis, label: 32P 5'-end, probe letters rebuilt from the primers and the genome
T3 sequence (looked up, limits assumed): T1 sequence (looked up, limits assumed) with K207R

MtrA K108Q = molecular target: T4, MtrA K108Q (UniProt P9WGM7); details: no AcP, no change vs WT; recombinant protein; protein details: 6xHis; label: 32P 5'-end; probe letters rebuilt from the primers and the genome
T4 sequence (looked up, limits assumed): T1 sequence (looked up, limits assumed) with K108Q, R110K

MtrA K108R = molecular target: T5, MtrA K108R (UniProt P9WGM7); details: no AcP, similar to WT; recombinant protein; protein details: 6xHis; label: 32P 5'-end; probe letters rebuilt from the primers and the genome
T5 sequence (looked up, limits assumed): T1 sequence (looked up, limits assumed) with K108R, R110K

Measured: binding result

GATCGTCGACCATCGGTGATTGGGTCTGATGAAGTTTGGTAAGTAGAGTCAACGCGCTATATCCCCGACCTCGGCAACACTCAACCACCTACACAGCGAACAAAAAGCAAAATGGGCCCTCCGAAACCTAGAGGCCCCACCCGTTCGATCACAAGACGGTAACGAACCGGCCAATGTTGAGCAACTCCGGCGCGCGGGTGTTATGGGCCGCTCGGCGCGCTCATTGGCGCATCCACCCTAGCCCATAAGCTCGGCGAGCGTTGCTTGTGGTGATGAGCGCCACCTCTTCGGGGCGCCGATTGACCAGTTCAGCCAGCGCCCGCACGGTATAGGGCAGGCAGTACGGTTCGTTCGCCAAGCCCCGGTGGGGATGCGGGGTCAAATACGGTGCATCGGTTTCCACCAAAAGCTGCTCCACCGGCATCAGCGGGACGGCTTCCCGTAGTTCACGGGCGGTACGGAGAATTCGATC (double strand) [rpfB promoter 440 bp]
binds: MtrA K110R | MtrA K207R | MtrA K110R K207R; no AcP, similar to WT | MtrA K110R K207R; with AcP (5 mM), no impact | MtrA K108Q | MtrA K108R

TTGCGCCCTTTCACCTCACGATGAGTTCGATCCCGTGGCTAGCGCCCCGCTAGCGTGGGGACTGCCAACGACGAATGCCCATGACGCGTGACCCGCCACGACGGCCGCAACAGCAGTCGAACAACAACCGTAGAGCTTCTCACGTCAACTTGAAAGTTCATCATTGACCTCTGACCCACCGCGACGAGCCAGTTATGCGGGTGGTATCCAGCGAACGATCCCCAGCGCTGTCTTTCCAAGAACAAACGACGAAGAAATCTCGGTAACAGTATTAGAGGGTGTGCAGTTTGGGGACAGTCTGGTCTTGGTGCAGGTCGACGTCGGTCGGAGTTGTGGATGACGGTGGCGATGACTGTGGGGTGTGTGTTGGGTCGGTGGGGATGAGGCGTGGGTTGTGAACGGAACCGCCGGGACTGTATGAGTCTGTGCGCGGTTTGTGCACAGCGACACTCACAGCCAATCTCTGTGACTGGTGTGACCTGGGAGAGAGAAGTTTTTTTAAGAACGTTGTCGGAAGAACACGCCGTGCTAGCGCTTGGAGCGCTGACGGATG (double strand) [oriC 526 bp]
binds: MtrA K110R | MtrA K207R | MtrA K110R K207R; no AcP, similar to WT | MtrA K110R K207R; with AcP, no impact | MtrA K108Q | MtrA K108R
